Pooled drug test results. Numbers come from NIAID ChemDB, via PubChem.

All rows: whole-cell or culture tests; species: HIV-1

ECn: concentration that inhibits the pathogen or its effect by n%.

compound	cells	mutations	read by	setting	read-out	strain	value
Cc1cc(/C=C/C#N)cc(C)c1Oc1nc(NC2CCN(Cc3ccccc3F)CC2)nc2ccsc12	MT-4	NNRTI-resistant (RT E138K)	MTT		EC50	IIIB	0.0335 µM
Cc1cc(C#N)cc(C(=O)c2cc(Cl)ccc2OCC(=O)Nc2cnc(S(N)(=O)=O)cc2C)c1	HeLa + HELA CD4+	RT-Y181C	β-galactosidase		EC50	HXB2	<0.01 µM
C=C(C)[C@@H]1CC[C@]2(C(=O)NCCCCCCCC(=O)N[C@@H](CC(C)C)[C@@H](O)CC(=O)O)CC[C@]3(C)[C@H](CC[C@@H]4[C@@]5(C)CC[C@H](O)C(C)(C)[C@@H]5CC[C@]43C)[C@@H]12	MT-4		cytopathic effect / MTT		EC50	RF	0.75 µM
Cc1cc(C)cc(C(=O)c2cc(Cl)ccc2OCC(=O)Nc2ccc(S(N)(=O)=O)cc2C)c1	HeLa + HELA CD4+	RT-L100I	β-galactosidase		EC50	HXB2	<0.01 µM
O=C1c2c(O)c(=O)n(Cc3nccc4ccccc34)c(=O)n2CCN1Cc1ccc(F)cc1	MT-4		p24		EC50		<10 µM
C[C@H]1C[C@H](C)CN(C(=O)Cn2ccn3c(=O)c(O)c(-c4ncc(Cc5ccc(F)cc5)s4)nc23)C1	HEK 293	QHGS	luciferase		EC50		0.5–1 µM
Cc1nc2ccc(Cl)cc2c(-c2ccccc2O)c1C(OC(C)C)C(=O)O	C8166		luciferase / reporter gene		EC50		<20 µM
N#Cc1ccc(Nc2nc(Oc3ccc(-c4ccc(C#N)cc4)c(C#N)c3)c3sccc3n2)cc1	MT-4		MTT		EC50	IIIB	0.0766 µM
CCCc1cc(=O)oc2c3c(c4c(c12)OC(C)(C)CC4)O[C@H](C)[C@@H](C)C3=O		RT-V108I	cytopathic effect / XTT		EC50		>100 µM
Cc1cc(N2CCS(=O)CC2)ccc1NC(=O)COc1ccc(Cl)cc1C(=O)c1cccs1	MT-4	RT-Y181C	cytopathic effect / propidium iodide		EC50	Nevirapine-resistant (RT Y181C)	0.011–0.1 µM
CSc1cc(F)ccc1Cc1cnc(-c2nc3n(CC(=O)N4C[C@@H](C)O[C@H](C)C4)ccn3c(=O)c2O)s1	HEK 293	QHGS	luciferase		EC50		0.5–1 µM
COc1ccc(S(=O)(=O)N(CC(C)C)C[C@@H](O)CCN(CC2CCCC2)S(=O)(=O)C2CCC(OC)OC2)cc1	CEM		p24		EC90	IIIB	1 µM
CC(C)=CCOc1cc(NC(=S)c2ccoc2C)ccc1Cl	CEM	RT-V106A	syncytia		EC50	IIIB	0.015 µM
C[C@@H](O)CCCCn1c(=O)c2c(ncn2C)n(C)c1=O	U1(HIV-1 (LAV)) + U1		p24		EC50	LAV	20–200 µM
N#Cc1ccc(Nc2nc(Oc3ccc(-c4ccc(C#N)cc4)c([N+](=O)[O-])c3)c3sccc3n2)cc1	MT-4		MTT		EC50	IIIB	0.0877 µM
Cc1nc2ccc(Br)cc2c(-c2ccc(Cl)cc2)c1C(OC1CCCC1)C(=O)O	C8166		luciferase / reporter gene		EC50		<20 µM
O=C1c2c(O)c(=O)n(C3CCS(=O)(=O)CC3)c(=O)n2CCN1Cc1ccc(F)cc1	MT-4		p24		EC95		<10 µM
CCCC(C(=O)O)c1c(-c2ccc(Cl)cc2)c2cc(Br)ccc2oc1=O	C8166		luciferase / reporter gene		EC50		<20 µM
C[C@H]1CN(C(=O)Cn2ccn3c(=O)c(O)c(-c4ncc(Cc5ccc(Cl)c(Cl)c5)s4)nc23)C[C@H](C)O1	HEK 293	Q148H/G140S	luciferase		EC50		0.1–1 µM
CC/C=C\C/C=C\C/C=C\C/C=C\C/C=C\CCCC(=O)OCC1=C[C@H]2[C@@H]3C(C)(C)[C@]3(OC(=O)CCC/C=C\C/C=C\C/C=C\C/C=C\C/C=C\CC)[C@H](O)[C@@H](C)[C@]2(O)[C@@H]2C=C(C)C(=O)[C@@]2(O)C1	C8166		p24 / ELISA		EC50	IIIB	12.74 µM
O=C(Cn1ccn2c(=O)c(O)c(-c3ncc(Cc4ccc(F)cc4)s3)nc12)N1CCOCC1	HEK 293	Q148H/G140S	luciferase		EC50		>1 µM
Cc1ccc(-c2ccc3c(c2)C=C(C(=O)Nc2ccc(C[N+](C)(C)C4CCOCC4)cc2)CCC3)cc1	PBMC		p24		EC50	TB9 CLADE C	<1 µM
Cc1cc(OCCCS(N)(=O)=O)ccc1NC(=O)COc1ccc(Cl)cc1C(=O)c1cc(F)cc(C(F)(F)F)c1	HeLa + HELA CD4+	RT-K103N G190A	β-galactosidase		EC50	HXB2 (RT-K103N G190A) Recombinant	0.011–0.1 µM
Cc1cc(C#N)cc(C)c1Oc1nc(NC2CCC(NCc3ccccc3)CC2)nc2ccsc12	MT-4	NNRTI-resistant (RT L100I)	MTT		EC50	IIIB	0.983 µM
O=C1CCCN1[C@H]1C[C@@H](c2cccc([N+](=O)[O-])c2)Nc2ccccc21	MT-2		luciferase		EC50	NL4-3-Luc	>148 µM
CCN(C)C(=O)[C@@]1(C)Cn2c(=O)c(C(=O)NC)c(O)c3ncc(Cc4ccc(F)cc4)c(c32)O1	MT-2		ATP / luminescence		EC50	IIIB	0.0025 µM
Cc1cc(-c2ccc(C#N)cc2)cc(Cl)c1Oc1nc(Nc2ccc(C#N)cc2)nc2ccsc12	MT-4	F227L V106A	MTT		EC50	IIIB	0.4056 µM
C#CCOC(C(=O)O)c1c(C)nc2ccc(Br)cc2c1-c1ccc(Cl)cc1	C8166		luciferase / reporter gene		EC50		<20 µM
CC(C)c1ccc(CS(=O)(=O)c2cccc[n+]2[O-])cc1	CEM				EC50	IIIB	<40 µg/mL
CC(C)=CCOc1cc(NC(=S)c2ccoc2C)ccc1Cl	CEM + CEM-SS	RT-L74V	p24		EC50	NL4-3	0.006 µM
CC1=C[C@H]2[C@@]3(O)[C@H](C)[C@@H](OC(=O)CCCCC4SCC5NC(=O)NC54)[C@]4(O)[C@H]([C@@H]3C=C(CO)C[C@]2(O)C1=O)C4(C)C	C8166		p24 / ELISA		EC50	IIIB	>200 µM
C[C@H](Cn1cnc2c(N)ncnc21)OCP(=O)(O)O	MT-2	A62V/T68ins/V75I/A98G/K103S/G190A	recombinant virus assay		EC50	Clinical isolate	0.088 µM
N#Cc1cc(Cl)cc(Oc2c(Br)ccc(CC(=O)Nc3ccc(S(N)(=O)=O)cc3Cl)c2F)c1	MT-4	K103N			EC50		0.0022 µM
CCc1ccc(-c2c([C@H](OC(C)(C)C)C(=O)O)c(C)nc3ccc(Cl)cc23)cc1	C8166		luciferase / reporter gene		EC50		<20 µM
COc1ccc(S(=O)(=O)N(CC2CCCC2)C(=O)C(=O)C(=O)[C@@H](Cc2ccccc2)NC(=O)OC(C)(C)C)cc1	CEM		p24		EC90	IIIB	1 µM
Cc1cn([C@H]2C=C[C@@H](CO)O2)c(=O)[nH]c1=O	MT-4	RT-K65R L74V M184V Y115F	p24		EC50	XM-ABC-resistant	<0.8 µM
Cc1cc(C#N)cc(C(=O)c2cc(Cl)ccc2OCC(=O)Nc2ccc(OCCCN3CC=CC3)cc2C)c1	HeLa + HELA CD4+	RT-K103N P225H	β-galactosidase		EC50	HXB2	<0.01 µM
C[C@H]1CN(C(=O)Cn2ccn3c(=O)c(O)c(-c4ncc(Cc5ccc(F)c(Cl)c5)s4)nc23)C[C@H](C)O1	HEK 293	Q148H/G140S	luciferase		EC50		0.1–1 µM
COc1ccc(C)cc1CS(=O)(=O)c1cccc[n+]1[O-]	CEM		syncytia		EC50	MN	40 µg/mL
C/C=C/C(=O)O[C@@H]1[C@@H](C)[C@@]2(O)[C@@H](C=C(CO)C[C@]3(O)C(=O)C(C)=C[C@@H]23)[C@@H]2C(C)(C)[C@]12OC(=O)/C=C/C	C8166		p24 / ELISA		EC50	IIIB	0.6224 µM
C=C(C)[C@@H]1CC[C@]2(C(=O)NCCCCCCCC(=O)N[C@@H](CC(C)C)[C@@H](O)CC(=O)O)CC[C@]3(C)[C@H](CC[C@@H]4[C@@]5(C)CC[C@H](O)C(C)(C)[C@@H]5CC[C@]43C)[C@@H]12	HeLa P4 + HeLa	R22A I84S	syncytia		EC50	LAI-R(GP41-R22A I84S)	>30 µM
CN1CCN(CCC2CN(Cc3ccc(F)cc3)C(=O)c3c(O)c(=O)n(C4CC4)c(=S)n32)CC1	MT-4		p24		EC95		<10 µM
Cc1cc(C)c(CS(=O)c2cccc[n+]2[O-])c(C)c1	CEM		p24		EC50	IIIB	~20 µg/mL
COc1ccc(S(=O)(=O)N(CC[C@H](O)CN2CSC[C@@H]2C(=O)NC(C)(C)C)CC(C)C)cc1	CEM		p24		EC90	IIIB	1 µM
N#Cc1ccc(Nc2nc(Oc3c(F)cc(-c4ccc(C#N)cc4)cc3F)c3sccc3n2)cc1	MT-4	K103N	MTT		EC50	IIIB	0.0087 µM
Cc1cc(/C=C/C#N)cc(C)c1Oc1nc(NC2CCN(Cc3ccc(Br)cc3)CC2)nc2ccsc12	MT-4	NNRTI-resistant (RT Y188L)	MTT		EC50	IIIB	0.287 µM
Nc1nc(=O)n([C@H]2C=C[C@@H](CO)O2)cc1F	MT-4		p24		EC90	NL4-3 WT	1.2 µM
Cc1cc(C#N)cc(C(=O)c2cc(Cl)ccc2OCC(=O)Nc2ccc(S(N)(=O)=O)nc2C)c1	HeLa + HELA CD4+	RT-Y181C	β-galactosidase		EC50	HXB2	<0.01 µM
Cc1cc(/C=C/C#N)cc(C)c1Oc1nc(NC2CCN(Cc3ccccc3C#N)CC2)nc2ccsc12	MT-4	NNRTI-resistant (RT E138K)	MTT		EC50	IIIB	0.0432 µM
Cc1occc1C(=S)Nc1ccc(Cl)c(/C=N/OC(C)(C)C)c1	CEM	RT-Y188H	syncytia		EC50	IIIB	0.64 µM
CC(C)CN(C[C@@H](O)CN(CCc1ccccc1)C(=O)O[C@H]1CCOC1)S(=O)(=O)c1cccc(N)c1	CEM		p24		EC90	IIIB	0.1 µM
CNC(=O)c1c(O)c2ncc(Cc3ccc(F)cc3)c3c2n(c1=O)C[C@](C)(C(=O)NCCC#N)O3	MT-2		ATP / luminescence		EC50	IIIB	0.014 µM
Cc1ccnc2c1NC(=O)c1cccnc1N2C1CC1	MT-4	EFV-resistant (K103R V179D P225H)	MTT		EC50		100 µM
Cc1cc(C)c2c(c1)N[C@H](c1cccc([N+](=O)[O-])c1)C[C@@H]2N1CCCC1=O	MT-2		luciferase		EC50	NL4-3-Luc	53.77 µM
C[C@]1(CO)Cn2c(=O)c(C(=O)NCCO)c(O)c3ncc(Cc4ccc(F)cc4)c(c32)O1	MT-2		ATP / luminescence		EC50	IIIB	0.007 µM
Cc1cc(C#N)cc(C(=O)c2cc(Cl)ccc2OCC(=O)Nc2ccc(S(N)(=O)=O)cc2C)c1	HeLa + HELA CD4+	RT-K103N V108I	β-galactosidase		EC50	HXB2	<0.01 µM
COc1ccc2nc(-c3cccc([N+](=O)[O-])c3)ccc2c1	MT-2		MTT		EC50	NL4-3	87.86 µM
CCCCCCCCC(=O)O[C@@]12[C@H](OC(=O)/C=C/c3ccc(Cl)cc3)[C@@H](C)[C@@]3(O)[C@@H](C=C(CO)C[C@]4(O)C(=O)C(C)=C[C@@H]34)[C@@H]1C2(C)C	C8166		p24 / ELISA		EC50	IIIB	0.0034 µM
C#C[C@@]1(CO)C=C[C@H](n2cc(C)c(=O)[nH]c2=O)O1	MT-2	M41L/D67N/K70R/M184V/L210W/T215Y/K219E	recombinant virus assay		EC50	Clinical isolate	6.137 µM
CCc1cc(C#N)cc(C(=O)c2cc(Cl)ccc2OCC(=O)Nc2ccc(S(N)(=O)=O)cc2C)c1	HeLa + HELA CD4+	RT-K103N P225H	β-galactosidase		EC50	HXB2	<0.01 µM
COC(=O)c1ccc(CN2CCC(Nc3nc(Oc4c(C)cc(C#N)cc4C)c4ccsc4n3)CC2)cc1	MT-4		MTT		EC50	RES056	15.3 µM
O=C(Cn1ccn2c(=O)c(O)c(-c3ncc(Cc4ccc(F)cc4)s3)nc12)N1CC2CC1CO2	HEK 293	QHGS	luciferase		EC50		1–10 µM
CC/C=C\C/C=C\C/C=C\C/C=C\C/C=C\CCCC(=O)O[C@@H]1[C@@H](C)[C@@]2(O)[C@@H](C=C(CO)C[C@]3(O)C(=O)C(C)=C[C@@H]23)[C@@H]2C(C)(C)[C@]12OC(=O)CCC	C8166		p24 / ELISA		EC50	IIIB	0.0074 µM
CCCC(C(=O)O)c1c(C)nc2ccc(Cl)cc2c1-c1ccccc1	C8166		luciferase / reporter gene		EC50		<20 µM
COc1c(O)cc2ccc(=O)oc2c1-c1c(O)ccc2ccc(=O)oc12	MT-4	N119 (Y1811C)	MTT		EC50		6.7 µM
O=C(c1ccccc1)N(CCc1ccccc1)C[C@H](O)CN(CC1CCCC1)S(=O)(=O)Cc1cncs1	CEM		p24		EC50	IIIB	<1 µM
CCNC(=O)[C@@H]1Cn2c(=O)c(C(=O)NCCO)c(O)c3ncc(Cc4ccc(F)cc4)c(c32)O1	MT-2		ATP / luminescence		EC50	IIIB	0.0097 µM
COc1cc2c(c(OC)c1)[C@@H](N1CCCC1=O)C[C@@H](c1cccc([N+](=O)[O-])c1)N2	MT-2		luciferase		EC50	NL4-3-Luc	53.73 µM
CCCCN(CCCC)CCCn1c(=O)c(O)c2n(c1=O)CCN(Cc1ccc(F)cc1)C2=O	MT-4		p24		EC50		<10 µM
CO[C@H](C(=O)O)c1c(C)nc2ccc(Br)cc2c1-c1ccc(Cl)cc1	C8166		luciferase / reporter gene		EC50		<20 µM
COc1cc(OC)c2ccc(-c3cccc([N+](=O)[O-])c3)nc2c1	MT-2	Delta-VSV-Luc	luciferase	pseudotyped	EC50	NL4-3	18.86 µM
Cc1cc(C#N)cc(C)c1Oc1nc(NC2CCC(NCc3ccc(O)cc3)CC2)nc2ccsc12	MT-4	NNRTI-resistant (RT Y181C)	MTT		EC50	IIIB	>20.1 µM
COc1ccc(S(=O)(=O)N(CC(C)C)C[C@@H](O)CCN(CC2CCCC2)S(=O)(=O)Cc2cc(C(C)(C)C)on2)cc1	CEM		p24		EC90	IIIB	1 µM
N#Cc1ccc(Nc2nc(Oc3ccc(-c4ccc(C#N)cc4)c(F)c3F)c3sccc3n2)cc1	MT-2	Y181C	MTT		EC50	IIIB	0.0582 µM
CN(C)S(=O)(=O)c1cc(F)ccc1CNC(=O)c1nc2n(CC(=O)N3CCCCC3)cc(N3CCCS3(=O)=O)n2c(=O)c1O	HEK 293	QHGS	luciferase		EC50		<0.5 µM

Conditions beyond the fields shown may differ between rows. Two numbers with a dash give a range or band. Blank or dashed fields: not listed here.